The text below walks through data of patent publication US11419918B2 (Shenzhen Turier Biotech Co., Ltd., priority 2017, dated 2022).

The nature of the series: general procedure: Fmoc solid-phase peptide synthesis; Rink amide MBHA-LL resin; HCTU/DIEPA. The conditions noted are these: whole synthesis, scale 0.25 mmol.

As for “His-(D-Ser)-Gln-Gly-Thr-Phe-Thr-Ser-Asp-Tyr-Ser-Lys-Tyr-Leu-Asp-Lys(PEG2-PEG2-γGlu-CO(CH2)14CH3)-Arg-Arg-Ala-Gln-Asp-Phe-Val-Gln-Trp-Leu-Met-Asn-Thr-Gly-Gly-Pro-Ser-Ser-Gly-Ala-Pro-Pro-Pro-Ser-NH2”, the “final HPLC purity” value is on record as “greater than 95%”.
